Earlier results in paper PMC12154458, “High-Throughput Screens of Repurposing Hub and DOS Chemical Libraries Reveal Compounds with Novel and Potent Inhibitory Activity Against the Essential Non-Neuronal Acetylcholinesterase of Schistosoma mansoni (SmTAChE)” (International Journal of Molecular Sciences, 2025).

Protein sequences, listed by entry. Tags and fused reporters are not part of them. Residues count along the entry.
UniProt A0A3Q0KMM5, 27-661 limits assumed: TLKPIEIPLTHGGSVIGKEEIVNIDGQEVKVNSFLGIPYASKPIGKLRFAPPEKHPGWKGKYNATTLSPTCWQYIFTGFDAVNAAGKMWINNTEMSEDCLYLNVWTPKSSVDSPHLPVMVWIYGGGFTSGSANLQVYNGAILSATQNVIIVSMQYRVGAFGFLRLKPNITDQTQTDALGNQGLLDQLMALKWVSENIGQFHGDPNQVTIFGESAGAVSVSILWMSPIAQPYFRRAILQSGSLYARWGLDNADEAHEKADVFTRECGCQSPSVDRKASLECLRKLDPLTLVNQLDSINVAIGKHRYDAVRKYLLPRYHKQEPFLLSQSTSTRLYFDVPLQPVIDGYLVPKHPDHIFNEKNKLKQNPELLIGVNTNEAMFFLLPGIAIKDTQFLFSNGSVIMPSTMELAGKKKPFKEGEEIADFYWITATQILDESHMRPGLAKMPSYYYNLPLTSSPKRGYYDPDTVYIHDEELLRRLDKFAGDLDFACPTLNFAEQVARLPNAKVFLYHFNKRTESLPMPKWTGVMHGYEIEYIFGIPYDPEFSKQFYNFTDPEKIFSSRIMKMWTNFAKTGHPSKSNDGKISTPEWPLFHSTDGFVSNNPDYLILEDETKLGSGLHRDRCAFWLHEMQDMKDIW

Target: rSmTAChE (Schistosoma mansoni, UniProt A0A3Q0KMM5)
Details: read-out: IC50 rSmTAChE; preliminary screening of Broad Institute Validation Library; cited from earlier work

**Q.** For `COc1cc(CNCCc2ccccc2F)ccc1OCC(=O)N1CCCCC1`, which IC50 is on record?
**A.** The IC50 was 740 nM.
